Results of unrelated studies side by side (data: NIAID ChemDB).

All rows: whole-cell or culture tests; agent: HIV-1

An empty or dashed field is not shown. Neighbouring rows are from separate reports. ECn: concentration that inhibits the pathogen or its effect by n%.

| SMILES | endpoint | setting | strain | changes | read by | cells | value |
|---|---|---|---|---|---|---|---|
| COc1ccc(S(=O)(=O)n2cc(/C(C)=N/NC(=O)c3ccccc3)c3ccccc32)cc1 | EC50 |  | IIIB |  | syncytia / visual reading | C8166 | 0.16 µg/mL |
| CCOCn1c(Cc2cc(C)cc(C)c2)c(CC)c(=O)[nH]c1=O | EC50 |  | IIIB |  | syncytia | CEM | 0.001 µM |
| COCc1nc(Nc2ccc(C#N)cc2)nc(Nc2c(C)cc(/C=C/C#N)cc2C)c1C(=O)NCCc1ccc(S(N)(=O)=O)cc1 | EC50 |  | IIIB |  |  | MT4 CMV-EGFP | 0.0148 µM |
| C=C(C)[C@@H]1CC[C@]2(C(=O)O)CC[C@]3(C)[C@H](CC[C@@H]4[C@@]5(C)CC=C(c6cccc(CCC(=O)O)c6)C(C)(C)[C@@H]5CC[C@]43C)[C@@H]12 | EC50 |  | NL4-3 | Gag P373S | luciferase | MT-2 | 1 µM |
| CCc1c(Sc2ccccc2)n(COCc2ccccc2)c(=O)[nH]c1=O | EC50 |  | IIIB TIBO R82913-resistant (RT K103N) | RT-K103N | syncytia | CEM | 0.82 µM |
| CCCCOC(=O)[C@@H](C)NP(=O)(CO[C@H](C)Cn1cnc2c(N)ncnc21)NC[C@H](C)C(=O)OC(C)C | EC50 | 50% human serum |  |  | fluorescence | MT4-GFP | 79.4 µM |
| Nc1nc(F)nc2c1ncn2[C@H]1S[C@@H](CO)C=C1F | EC50 |  | LAI |  | RT activity | PBMC | 11.5 µM |
| COC(=O)[C@@H](C)NP(=O)(OC[C@@H]1OC[C@H](n2cc(C)c(=O)[nH]c2=O)O1)Oc1ccccc1 | EC50 |  | LAI | RT-M184V | RT activity | PBMC | 4.5 µM |
| C=C(C)[C@@H]1CC[C@]2(CO)CC[C@]3(C)[C@H](CC[C@@H]4[C@@]5(C)CC=C(c6ccc(O)c(F)c6)C(C)(C)[C@@H]5CC[C@]43C)[C@@H]12 | EC50 |  | NL4-3 | Gag P373S | luciferase | MT-2 | 1 µM |
| CCOCn1c(Sc2ccccc2)c(CC)c(=O)[nH]c1=O | EC50 |  | IIIB | RT-Y181C | syncytia | CEM | 0.65 µM |
| CC(C)OC(=O)[C@H](C)CNP(=O)(CO[C@H](C)Cn1cnc2c(N)ncnc21)N[C@@H](C)C(=O)OC(C)C | EC50 | 10% human serum |  |  | fluorescence | MT4-GFP | 10.6 µM |
| Cc1cn([C@H]2CO[C@@H](CO[P@]3(=O)OCC[C@H](c4ccccc4)O3)O2)c(=O)[nH]c1=O | EC50 |  | LAI | RT-M184V | RT activity | PBMC | 3.2 µM |
| C[C@@H]1CN(C(=O)c2ccccc2)CCN1C(=O)C(=O)c1c[nH]c2c(NC(=O)Nc3ccccc3C(=O)O)cccc12 | EC50 |  |  |  | luciferase / reporter gene | HeLa | <1 µM |
| C[C@H]1[C@H](C)CC[C@]2(C(=O)O)CC[C@]3(C)C(=CC[C@@H]4[C@@]5(C)CC=C(c6ccc(C(=O)O)cc6)C(C)(C)[C@@H]5CC[C@]43C)[C@H]12 | EC50 |  | NL4-3 | Gag P373S | luciferase | MT-2 | 1 µM |
| CNC(CC(=O)O)C(=O)Nc1cccc2c(C(=O)C(=O)N3CCN(C(=O)c4ccccc4)C[C@H]3C)c[nH]c12 | EC50 |  |  |  | luciferase / reporter gene | HeLa | <1 µM |
| COCc1nc(Nc2ccc(C#N)cc2)nc(Nc2c(C)cc(/C=C/C#N)cc2C)c1C(=O)NCC(OC)OC | EC50 |  | K103N+Y101C |  |  | MT4 CMV-EGFP | 0.0141 µM |
| COC(=O)[C@H](NP(=O)(OC[C@@H]1OC[C@H](n2cc(C)c(=O)[nH]c2=O)O1)Oc1ccccc1)C(C)C | EC50 |  | LAI | RT-M184V | RT activity | PBMC | 18 µM |
| C=C(C)[C@@H]1CC[C@]2(C(C)=O)CC[C@]3(C)[C@H](CC[C@@H]4[C@@]5(C)CC=C(c6ccc(C(=O)OC)cc6)C(C)(C)[C@@H]5CC[C@]43C)[C@@H]12 | EC50 |  | NL4-3 | Gag P373S | luciferase | MT-2 | >1 µM |
| Cc1nc2c(c(C)c(C)n2CCN(C)C)c(-c2ccc(Cl)cc2)c1[C@H](OC(C)(C)C)C(=O)O | EC50 |  | IIIB |  | MTT | MT-4 | 0.09046 µM |
| O=C(CNC(=O)COc1ccccc1)NCc1ccc(C(=O)N2CCCCC2)cc1 | EC50 |  | NL4-3 |  | RT activity | PBMC | 30.8 µM |
| CCCCCCCCCCCCCCCCOCCCOP(=O)(N[C@@H](C)C(=O)OC)OC[C@@H]1OC[C@H](n2cc(C)c(=O)[nH]c2=O)O1 | EC50 |  | LAI | RT-M184V | RT activity | PBMC | 2.7 µM |
| C/C(=N\NC(=O)c1ccccc1)c1cn(S(=O)(=O)c2ccc(C)cc2)c2cc(C)ccc12 | EC50 |  | IIIB |  | syncytia / visual reading | C8166 | 1.65 µg/mL |
| COCc1nc(Nc2ccc(C#N)cc2)nc(Nc2c(C)cc(/C=C/C#N)cc2C)c1C(=O)NCCC#N | EC50 |  | MDR |  |  | MT4 CMV-EGFP | 0.0933 µM |
| CCc1c(Sc2cc(C)cc(C)c2)n(COCCO)c(=O)[nH]c1=O | EC50 |  | IIIB | RT-E138K | syncytia | CEM | 0.03 µM |
| CCCCOC(=O)[C@H](C)NP(=O)(CO[C@H](C)Cn1cnc2c(N)ncnc21)NC[C@H](C)C(=O)OC(C)C | EC50 | 50% human serum |  |  | fluorescence | MT4-GFP | 146 µM |
| CC(C)c1c(Sc2ccccc2)n(COCCO)c(=S)[nH]c1=O | EC50 |  | IIIB | RT-Y181I | syncytia | CEM | >10 µM |
| CC(C)OC(=O)[C@@H](C)CNP(=O)(CO[C@H](C)Cn1cnc2c(N)ncnc21)N[C@H](C)C(=O)OC(C)C | EC50 | 50% human serum |  |  | fluorescence | MT4-GFP | 494.3 µM |
| C/C(=N\NC(=O)c1ccccc1)c1cn(S(=O)(=O)c2ccccc2)c2ccc(C#N)cc12 | EC50 |  | IIIB |  | syncytia / visual reading | C8166 | 0.67 µg/mL |
| COC(=O)[C@H](C)NP(=O)(OC[C@@H]1OC[C@H](n2cc(C)c(=O)[nH]c2=O)O1)Oc1ccc(CC(C)(C)C)cc1 | EC50 |  | LAI | RT-M184V | RT activity | PBMC | 0.99 µM |
| C/C(=N\NC(=O)c1ccccc1)c1cn(S(=O)(=O)c2cccc([N+](=O)[O-])c2)c2ccccc12 | EC50 |  | IIIB |  | syncytia / visual reading | C8166 | 0.26 µg/mL |
| COCc1nc(Nc2ccc(C#N)cc2)nc(Nc2c(C)cc(/C=C/C#N)cc2C)c1C(=O)NCCN1CCOCC1 | EC50 |  | K103N+Y101C |  |  | MT4 CMV-EGFP | 0.0794 µM |
| C/C(=N\NC(=O)c1ccccc1)c1cn(S(=O)(=O)c2ccccc2)c2cc(C)ccc12 | EC50 |  | IIIB |  | syncytia / visual reading | C8166 | 0.49 µg/mL |
| C[C@@H]1CN(C(=O)c2ccccc2)CCN1C(=O)C(=O)c1c[nH]c2c(NC(=O)c3ccno3)cccc12 | EC50 |  |  |  | luciferase / reporter gene | HeLa | <1 µM |
| Cc1nc2c(c(C)c(C)n2C)c(-c2ccc(Cl)cc2)c1C(OC(C)(C)C)C(=O)O | EC50 |  | IIIB |  | MTT | MT-4 | 0.029 µM |
| CCCCCOC(=O)[C@@H](C)NP(=O)(CO[C@H](C)Cn1cnc2c(N)ncnc21)NC[C@H](C)C(=O)OC(C)C | EC50 | 50% human serum |  |  | fluorescence | MT4-GFP | 28.3 µM |
| COC(=O)[C@@H](Cc1ccccc1)NP(=O)(OC[C@@H]1OC[C@H](n2cc(C)c(=O)[nH]c2=O)O1)Oc1ccccc1 | EC90 |  | LAI | RT-M184V | RT activity | PBMC | 49.9 µM |
| CC(C)CN(C[C@@H](O)[C@H](Cc1ccccc1)NC(=O)O[C@H]1CO[C@H]2OCC[C@H]21)S(=O)(=O)c1ccc2nc(NC3CCN(C4CCCC4)CC3)sc2c1 | EC50 |  | T21055 | L10F I47V | reporter gene | MT-4 | 308 nM |
| COc1ccnc2[nH]cc(C(=O)C(=O)N3C4CC3CN(C(=O)c3ccccc3)C4)c12 | EC50 |  | 6535 |  | luciferase | TZM-bl | 70 µM |
| CCCc1ccc(OP(=O)(N[C@@H](C)C(=O)OC)OC[C@@H]2OC[C@H](n3cc(C)c(=O)[nH]c3=O)O2)cc1 | EC50 |  | LAI | RT-M184V | RT activity | PBMC | 0.2 µM |
| C=CCn1c(C)c(C)c2c(-c3ccc(Cl)cc3)c(C(OC(C)(C)C)C(=O)O)c(C)nc21 | EC50 |  | IIIB |  | MTT | MT-4 | 0.0317 µM |
| CC(C)[C@H](NC(=O)OCc1ccccn1)C(=O)N[C@@H](Cc1ccccc1)[C@@H](O)C[C@H](Cc1ccccc1)NC(=O)OCc1cccnc1 | EC50 |  | NL4-3 | PR-L10R M46I L63P | p24 | MT-4 | <0.8 µM |
| COCc1nc(Nc2ccc(C#N)cc2)nc(Nc2c(C)cc(/C=C/C#N)cc2C)c1C(=O)N1CCN(C)CC1 | EC50 |  | K103N+Y101C |  |  | MT4 CMV-EGFP | 2.82 µM |
| Cc1occc1C(=O)Nc1ccc(Cl)c(/C=N/N(C)C)c1 | EC50 |  | HEPT-resistant (RT Y188L) | RT-Y188L | syncytia | CEM | <2 µg/mL |
| COC(=O)[C@H](C)NP(=O)(OC[C@@H]1OC[C@H](n2cc(C)c(=O)[nH]c2=O)O1)Oc1ccc(OC)cc1 | EC50 |  | LAI | RT-M184V | RT activity | PBMC | 0.56 µM |
| CCOCn1c(Sc2cc(C)cc(C)c2)c(CC)c(=O)[nH]c1=O | EC50 |  | IIIB | RT-E138K | syncytia | CEM | 0.03 µM |
| Cc1cc(C#N)cc(C)c1Oc1nc(Nc2ccc(C#N)cc2)nc(N)c1Br | EC50 |  | MJ4 C |  | luciferase | HEK293T | 1.2 nM |
| Cc1cc(C)cc(Sc2c(C(C)C)c(=O)[nH]c(=S)n2COCCO)c1 | EC50 |  | IIIB | RT-Y188H | syncytia | CEM | 1.4 µM |
| Cc1nc2c(c(C)c(C)n2CC2CC2)c(-c2ccc(Cl)cc2)c1[C@@H](OC(C)(C)C)C(=O)O | EC50 |  | IIIB |  | MTT | MT-4 | >100 µM |
| COc1ccnc2[nH]cc(C(=O)C(=O)N3C4CCC3CN(C(=O)c3ccccc3)C4)c12 | EC99 |  | 6535 |  | luciferase | TZM-bl | 4 µM |
| CCCCCOC(=O)C(C)(C)N[P@@](=O)(CO[C@H](C)Cn1cnc2c(N)ncnc21)N[C@@H](CC(=O)OC(C)C)C(C)C | EC50 | 10% human serum |  |  | fluorescence | MT4-GFP | 28.9 µM |
| CC(C)c1c(Sc2ccccc2)n(COCc2ccccc2)c(=O)[nH]c1=O | EC50 |  | IIIB (TIBO 82150) (RT-L100I) | RT-L100I | syncytia | CEM | 0.01 µM |
| CCCCCCCCCCCCCCCCOCCCOP(=O)(O)OC[C@@H]1OC[C@H](n2cc(C)c(=O)[nH]c2=O)O1 | EC90 |  | LAI | RT-M184V | RT activity | PBMC | 15.4 µM |
| C[C@H]1[C@H](O)[C@@H](C)/C=C/C=C/C=C/C=C/C=C/C=C/C=C/[C@H](O[C@@H]2O[C@H](C)[C@@H](O)[C@H](N)[C@@H]2O)C[C@@H]2O[C@](O)(C[C@@H](O)C[C@@H](O)CC[C@H](O)[C@@H](O)C[C@@H](O)CC(=O)O[C@H]1C)C[C@H](O)[C@H]2C(=O)O | EC50 |  | 92UG029 CLADE A X4 (SI) |  | p24 / RT activity | PBMC | 1.5 µM |
| Cc1cc(C)cc(Cc2c(C(C)C)c(=O)[nH]c(=O)n2COCCO)c1 | EC50 |  | IIIB | RT-Y181C | syncytia | CEM | 3.4 µM |
| COCCNC(=O)c1c(COC)nc(Nc2ccc(C#N)cc2)nc1Nc1c(C)cc(/C=C(\C)C#N)cc1C | EC50 |  | K103N + Y181C |  |  | MT4 CMV-EGFP | 0.0195 µM |
| CC(=O)Nc1ccc(F)c2c(C(=O)C(=O)N3CC/C(=C(\C#N)c4ccccc4)CC3C)c[nH]c12 | EC50 |  |  |  | luciferase / reporter gene | HeLa | <1 µM |
| COCc1nc(Nc2ccc(C#N)cc2)nc(Nc2c(C)cc(/C=C/C#N)cc2C)c1C(=O)NCc1cccs1 | EC50 |  | IIIB |  |  | MT4 CMV-EGFP | 0.00589 µM |
| Cc1nc2c(c(C)c(C)n2Cc2ccccn2)c(-c2ccc(Cl)cc2)c1C(OC(C)(C)C)C(=O)O | EC50 |  | IIIB |  | MTT | MT-4 | 0.144 µM |

6 of the rows above, restated:

SMILES | endpoint | setting | strain | changes | read by | cells | value
CNC(CC(=O)O)C(=O)Nc1cccc2c(C(=O)C(=O)N3CCN(C(=O)c4ccccc4)C[C@H]3C)c[nH]c12 | EC50 |  |  |  | luciferase / reporter gene | HeLa | <1 µM
CCCCOC(=O)[C@H](C)NP(=O)(CO[C@H](C)Cn1cnc2c(N)ncnc21)NC[C@H](C)C(=O)OC(C)C | EC50 | 50% human serum |  |  | fluorescence | MT4-GFP | 146 µM
CCCCCOC(=O)[C@@H](C)NP(=O)(CO[C@H](C)Cn1cnc2c(N)ncnc21)NC[C@H](C)C(=O)OC(C)C | EC50 | 50% human serum |  |  | fluorescence | MT4-GFP | 28.3 µM
COCc1nc(Nc2ccc(C#N)cc2)nc(Nc2c(C)cc(/C=C/C#N)cc2C)c1C(=O)NCC(OC)OC | EC50 |  | K103N+Y101C |  |  | MT4 CMV-EGFP | 0.0141 µM
C[C@H]1[C@H](O)[C@@H](C)/C=C/C=C/C=C/C=C/C=C/C=C/C=C/[C@H](O[C@@H]2O[C@H](C)[C@@H](O)[C@H](N)[C@@H]2O)C[C@@H]2O[C@](O)(C[C@@H](O)C[C@@H](O)CC[C@H](O)[C@@H](O)C[C@@H](O)CC(=O)O[C@H]1C)C[C@H](O)[C@H]2C(=O)O | EC50 |  | 92UG029 CLADE A X4 (SI) |  | p24 / RT activity | PBMC | 1.5 µM
CCOCn1c(Sc2cc(C)cc(C)c2)c(CC)c(=O)[nH]c1=O | EC50 |  | IIIB | RT-E138K | syncytia | CEM | 0.03 µM